From PMC8190864 come the findings set out here.

Protein sequences, listed by entry. Tags and fused reporters are not part of them. Residues count along the entry.
UniProt P02769, 25-607: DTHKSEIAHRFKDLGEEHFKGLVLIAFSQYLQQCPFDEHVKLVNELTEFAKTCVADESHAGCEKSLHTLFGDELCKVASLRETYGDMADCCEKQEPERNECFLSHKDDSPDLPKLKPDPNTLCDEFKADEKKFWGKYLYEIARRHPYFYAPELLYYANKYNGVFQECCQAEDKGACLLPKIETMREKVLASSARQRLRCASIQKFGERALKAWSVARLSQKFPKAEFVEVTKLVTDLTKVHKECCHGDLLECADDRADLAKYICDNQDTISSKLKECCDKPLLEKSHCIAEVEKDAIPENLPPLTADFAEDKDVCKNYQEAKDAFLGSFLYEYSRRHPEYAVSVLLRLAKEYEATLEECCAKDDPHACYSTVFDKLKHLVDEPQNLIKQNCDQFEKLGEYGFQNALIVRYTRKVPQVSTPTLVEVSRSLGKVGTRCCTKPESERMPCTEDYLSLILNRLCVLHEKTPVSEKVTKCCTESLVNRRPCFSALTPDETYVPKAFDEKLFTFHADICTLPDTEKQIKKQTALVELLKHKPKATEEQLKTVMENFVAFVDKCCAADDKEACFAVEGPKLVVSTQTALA

Series [1] concerns the target T1, SNAP50 (parasite extract) (Trypanosoma cruzi) (UniProt Q4D342).
T1 sequence (looked up, limits assumed): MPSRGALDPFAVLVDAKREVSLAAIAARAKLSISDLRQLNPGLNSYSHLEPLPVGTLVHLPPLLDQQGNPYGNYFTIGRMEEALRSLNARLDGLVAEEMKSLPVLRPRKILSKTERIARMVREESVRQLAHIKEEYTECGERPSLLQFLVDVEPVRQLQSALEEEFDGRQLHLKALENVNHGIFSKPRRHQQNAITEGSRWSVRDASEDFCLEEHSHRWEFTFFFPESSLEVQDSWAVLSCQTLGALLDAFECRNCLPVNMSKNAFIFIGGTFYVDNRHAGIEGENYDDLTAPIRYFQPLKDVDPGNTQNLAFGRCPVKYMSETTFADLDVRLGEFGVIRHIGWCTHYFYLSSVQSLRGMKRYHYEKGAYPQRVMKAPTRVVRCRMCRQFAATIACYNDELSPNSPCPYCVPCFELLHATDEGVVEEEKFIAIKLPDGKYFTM
As to the kind of experiment: pull-down. To be noted: total extract, immunoblot; extracts/pull-down: 12 mM HEPES, 4 mM Tris-HCl pH 8, 1 mM EDTA, 0.5 mM DTT, 6% glycerol, poly(dI-dC), room temperature; protein in an extract; label: 5' biotin on sense strand. On the technique in general: Immunoblotting shows a protein as a band on a membrane.

Series [2] deals with T2, TBP (parasite extract) (Trypanosoma cruzi) (UniProt Q4DK05).
T2 sequence (looked up, limits assumed): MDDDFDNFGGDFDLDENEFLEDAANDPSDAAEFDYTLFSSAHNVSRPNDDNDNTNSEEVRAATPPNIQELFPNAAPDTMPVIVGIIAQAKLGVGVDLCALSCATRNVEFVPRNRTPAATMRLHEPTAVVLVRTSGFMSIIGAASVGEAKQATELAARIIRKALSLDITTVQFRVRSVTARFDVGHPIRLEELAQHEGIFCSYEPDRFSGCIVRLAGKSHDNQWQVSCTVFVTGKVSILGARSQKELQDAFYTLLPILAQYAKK
As to the kind of experiment: pull-down. Particulars: total extract, immunoblot; extracts/pull-down: 12 mM HEPES, 4 mM Tris-HCl pH 8, 1 mM EDTA, 0.5 mM DTT, 6% glycerol, poly(dI-dC), room temperature; protein in an extract; label: 5' biotin on sense strand.

Series [3] deals with T1, SNAP50 (parasite extract) (Trypanosoma cruzi). As to the kind of experiment: EMSA immunoblot. To be noted: nuclear extract, UV, native gel, likely via protein-protein contacts; EMSA: 20 mM Tris pH 7.9, 60 mM KCl, 5 mM MgCl2, 10 mM DTT, 6% glycerol, 0.2 mg/ml BSA, 30 min 37 C; protein in an extract. Background: Mobility shift assays separate free from complexed probe on a gel.

The target is the same in series [4]. As to the kind of experiment: UV crosslinking, SDS-PAGE immunoblot. Particulars: nuclear or total extract, denatured, no direct crosslink; protein in an extract.
The target in series [5] is T2, TBP (parasite extract) (Trypanosoma cruzi). As to the kind of experiment: UV crosslinking, SDS-PAGE immunoblot. Particulars: nuclear extract, ~90 kDa complex; protein in an extract.
In a further series the target is BSA (bovine) (UniProt P02769). In words: EMSA. To be noted: 6.35 uM, with and without UV; EMSA: 20 mM Tris pH 7.9, 60 mM KCl, 5 mM MgCl2, 10 mM DTT, 6% glycerol, 0.2 mg/ml BSA, 30 min 37 C; commercial protein; label: 5' 32P on one strand.

For some of these results: No signal at the amounts used counts as a negative. For some of these results: Construct, isoform or probe ends are uncertain for at least one entry. For some of these results: Results from cells or extracts need not show a direct contact. For some of these results: Protein sequences can lack the tags named with them.

Regarding “CCCTGGCTCAGCCGGCCACCTCAACGTGGTGCCAGGGTCTAGTACTCTTTGCTAGAGAGGAAGCTAAGCGCCTGCTG (double strand) [Biot-dsPr77]”, the binding result in series [1] and in series [2] was “binds” each time.

Regarding “GGTACATCCTCGACGGCATCTCAGCCCTGAGAAAGGAGACATGTAACAAGAGTAACATGTGTGAAAGCAGCAAAGAGG / CCTCTTTGCTTTCACACATGTTACTCTTGTTACATGTCTCCTTTCTCAGGGCTGAGATGCCGTCGAGGATGTACC [Biot-IL6]”, the binding result in series [1] and in series [2] was “no binding” in each case.

Regarding “CCCTGGCTCAGCCGGCCACCTCAACGTGGTGCCAGGGTCTAGTACTCTTTGCTAGAGAGGAAGCTAAGCGCCTGCTG (double strand) [dsPr77 unlabelled]”, the binding result in series [3] is given as “binds”; in series [4], “no binding”; in series [5], “binds”.

Turning to “CCCTGGCTCAGCCGGCCACCTCAACGTGGTGCCAGGGTCTAGTACTCTTTGCTAGAGAGGAAGCTAAGCGCCTGCTG (double strand) [dsPr77]”, the binding result in the series with BSA (bovine) is listed as “no binding”.

As for “GGGTTTTTGTACACGGTCCCAAGTGCCGCGAAGGACCCCTCATCAAAATTGAAAACCGTTGTGGAACACAACTTCCTTTCAACTAACGCT (double strand) [Biot-SL]”, the binding result in series [1] and in series [2] was “binds” each time.
